Compound potency records, mixed from different reports. Data source: NIAID ChemDB in PubChem.

Shared fields: whole-cell or culture tests; agent: HIV-1

Fold resistance has wild type as its base. Blank or dashed fields: not listed here. Conditions beyond the fields shown may differ between rows. ECn: concentration that inhibits the pathogen or its effect by n%.

| SMILES | strain | mutations | cells | method | measure | result |
|---|---|---|---|---|---|---|
| CC(C)=CCOc1cc(NC(=S)c2ccoc2C)ccc1Cl | E BPTU-resistant (RT Y181C) | RT-Y181C | CEM + CEM-SS | cytopathic effect / XTT | fold resistance | 40 |
| Cc1cc(S(N)(=O)=O)ccc1NC(=O)COc1ccc(Cl)cc1C(=O)c1cccc(C#N)n1 | HXB2 | RT-V108I Y181C | HeLa + HELA CD4+ | β-galactosidase | fold resistance | ~1 |
| Cc1cc(CNC(=O)c2nc3n(c(=O)c2O)CCN(C(C)C)CC3N(C)C(=O)C(=O)N(C)C)ccc1F |  |  | MT-4 | p24 | EC95 | <1 µM |
| O=C1Nc2ccc(F)c(F)c2[C@@](/C=C/C2CC2)(C(F)(F)F)N1 |  | RT-K101E |  |  | EC90 | <0.012 µM |
| Cc1cc2cn[nH]c2cc1NC(=O)COc1ccc(Cl)cc1C(=O)c1cccc(C#N)c1 | HXB2 (RT-K103N Y181C) Recombinant | RT-K103N Y181C | HeLa + HELA CD4+ | β-galactosidase | fold resistance | ~1 |
| CCN(C(=O)C(=O)N(C)C)C1CN(C)CCn2c1nc(C(=O)NCc1ccc(F)c(C)c1)c(O)c2=O |  |  | MT-4 | p24 | EC95 | <1 µM |
| O=C(c1ccccc1)N(CCc1ccccc1)C[C@H](O)CN(CC1CCCC1)S(=O)(=O)CC1CCOC1 | IIIB |  | CEM | p24 | EC90 | 1 µM |
| Cc1cc(S(N)(=O)=O)ccc1NC(=O)COc1ccc(Cl)cc1C(=O)c1cc(Cl)cc(C#N)c1 | HXB2 | RT-K103N | HeLa + HELA CD4+ | β-galactosidase | fold resistance | ~1 |
| O=C(N[C@@H](Cc1ccccc1)C(=O)C(F)(F)N(Cc1ccccc1)S(=O)(=O)c1ccccc1)OC1COCOC1 | IIIB |  | CEM | p24 | EC90 | 1 µM |
| COc1ccnc2[nH]cc(C(=O)C(=O)N3C4CC3CN(C(=O)c3ccccc3)C4)c12 | PVO |  | TZM-bl | luciferase | EC99 | >>250 µM |
| COc1ccc(S(=O)(=O)N(CC(C)C)C[C@@H](O)CCN(CC2CCCC2)S(=O)(=O)Cc2cccc3n[nH]nc23)cc1 | IIIB |  | CEM | p24 | EC90 | 1 µM |
| CC(=O)N1CCc2nc(C(=O)NCc3ccc(F)cc3)c(O)c(=O)n2CC1 |  |  | MT-4 | p24 | EC95 | <50 µM |
| O=C1Nc2ccc(Cl)cc2[C@@](C#CC2CC2)(C(F)(F)F)N1 |  | RT-P225H |  |  | EC90 | <0.012 µM |
| COc1ccnc2[nH]cc(C(=O)C(=O)N3C4CCCC3CN(C(=O)c3ccccc3)C4)c12 | SF162 |  | TZM-bl | luciferase | EC90 | 42 µM |
| Cc1cc(S(N)(=O)=O)ccc1NC(=O)COc1ccc(Cl)cc1C(=O)c1cccc(C#N)c1 | HXB2 | RT-G190E | HeLa + HELA CD4+ | β-galactosidase | fold resistance | ~1 |
| CC(C)=CCOc1cc(NC(=S)c2ccsc2C)ccc1Cl | Thiazolobenzimidazole-resistant (RT V108I) | RT-V108I | CEM + CEM-SS | cytopathic effect / XTT | fold resistance | 7.5 |
| Cc1cc(Cl)cc(C(=O)c2cc(Cl)ccc2OCC(=O)Nc2ccc(S(N)(=O)=O)cc2C)c1 | HXB2 | RT-V106I | HeLa + HELA CD4+ | β-galactosidase | fold resistance | ~0.1 |
| COc1ccc(S(=O)(=O)N(CC2CCCC2)C(=O)C(=O)C(=O)N(CC2CCCC2)S(=O)(=O)c2ccccc2)cc1 | IIIB |  | CEM | p24 | EC90 | 1 µM |
| Cc1ccc(C)n1-c1ccc(C(=O)O)c(O)c1 | 94UG103 X4R5 CLADE A |  | PBMC + MT-2 | p24 | EC90 | 31.24 µM |
| Cc1cc(C)cc(C(=O)c2cc(Cl)ccc2OCC(=O)Nc2ccc(S(N)(=O)=O)cc2C)c1 | HXB2 (RT-K103N G190A) Recombinant | RT-K103N G190A | HeLa + HELA CD4+ | β-galactosidase | fold resistance | ~1 |
| Nc1cccc(S(=O)(=O)N(CC2CCCC2)C[C@@H](O)CN(CCc2ccccc2)C(=O)O[C@@H]2COC3OCCC32)c1 | IIIB |  | CEM | p24 | EC90 | 0.1 µM |
| CCC(=O)c1ccc(F)c([C@@H]2C[C@@H]2NC(=O)Nc2ccc(C#N)cn2)c1O | LAI | NNRTI-resistant (RT E138K) | TZM-bl | β-galactosidase / luminescence | fold resistance | 2.8 |
| CN(C)C(=O)C(=O)N1CCc2nc(C(=O)NCc3ccc(F)cc3)c(O)c(=O)n2CC1 |  |  | MT-4 | p24 | EC95 | <50 µM |
| COc1ccc(S(=O)(=O)N(CC(C)C)C[C@@H](O)CCN(CC2CCCC2)S(=O)(=O)C2CCCCC2)cc1 | IIIB |  | CEM | p24 | EC90 | 1 µM |
| Cc1cc2[nH]cnc2cc1NC(=O)COc1ccc(Cl)cc1C(=O)c1cc(F)cc(C(F)(F)F)c1 | HXB2 | RT-K103N P225H | HeLa + HELA CD4+ | β-galactosidase | fold resistance | ~1 |
| CC(C)c1ncc(CS(=O)(=O)N(CC2CCCC2)C[C@@H](O)CN(CCc2ccccc2)C(=O)c2ccccc2)s1 | IIIB |  | CEM | p24 | EC90 | 1 µM |
| CC(C)=CCOc1cc(NC(=S)c2ccoc2C)ccc1Cl | 4xAZT(RT-D67N K70R T215Y K219Q) | RT-D67N K70R T215Y K219Q | CEM + CEM-SS | p24 | fold resistance | 1 |
| CC(C)CN(CC(O)CN(CC(C)C)S(=O)(=O)c1ccc([N+](=O)[O-])cc1)S(=O)(=O)c1ccccc1 | IIIB |  | CEM | p24 | EC90 | 1 µM |
| CC(C)=CCN1Cc2cccc3[nH]c(=O)n(c23)CC1C | UC10-resistant (RT Y181C K101E) | RT-Y181C K101E | CEM + CEM-SS | cytopathic effect / XTT | fold resistance | >350 |
| Cn1nnc(CN2CCn3c(nc(C(=O)NCc4ccc(F)cc4)c(O)c3=O)C2(C)C)n1 |  |  | MT-4 | p24 | EC95 | <1 µM |
| COc1ccc(S(=O)(=O)N(CC(C)C)CC(O)CN[C@H]2c3ccccc3CC2O)cc1 | IIIB |  | CEM | p24 | EC90 | 1 µM |